Results of unrelated studies side by side (data: NIAID ChemDB).

Shared fields: growth or infection tests; agent: HIV-1; read-out: fold resistance

Lines come from different laboratories, so protocols vary.

SMILES | cells | mutations | strain or isolate | value
Nc1ncnc2c1ncn2[C@@H]1O[C@H](CO)C=C1F | MT-2 | 6TAMs |  | 3
CCC(C)c1c(OC2CCCC2)c2cc(Cl)ccc2[nH]c1=O | MT-4 | RT-Y181C | Nevirapine-resistant (RT Y181C) | 35.3
FC(F)(Sc1ncccn1)c1nc2ccccc2o1 |  | RT-T139I | CALO | 1
C=Cc1c(Cc2ccccc2)n(COCC)c(=O)[nH]c1=O |  | RT-Y181C |  | 1430
CCc1c(C(=O)c2cc(C)cc(C)c2)n(CC2CC=CC2)c(=O)[nH]c1=O |  | RT-Y181C | IIIB SJ-3366 P4 (RT Y181C) | 15
O=C1Nc2ccc(Cl)cc2[C@@](C#CC2CC2)(C(F)(F)F)N1 |  | RT-K103N V108I |  | 21.1
O=C1CC(C#CC2CC2)(C(F)(F)F)c2cc(Cl)ccc2N1 |  | RT-L100I |  | 70.9
CC(C)OC(=O)c1cc(NC(=S)OC(C)C)ccc1Cl | CEM | RT-K101E | IIIB | 2.8
O=C1Nc2ccc(Cl)cc2C(C#Cc2cncs2)(C(F)(F)F)O1 |  | RT-K103N |  | 128
N#Cc1cc(Cl)cc(Oc2c(Br)ccc(CC(=O)Nc3ccc(S(N)(=O)=O)cc3Cl)c2F)c1 | MT-4 | L100I V106I E138K Y188L |  | >308
CC(C)c1c(OC#CC2CC2)c2cc(Cl)ccc2[nH]c1=O | MT-4 | RT-103N Y181C |  | 40
CCOCn1c(Cc2ccccc2)c(C(C)C)c(=O)[nH]c1=O |  | RT-Y181C |  | >20000
O=C1Nc2ccc(F)cc2C(C#Cc2cccs2)(C(F)(F)F)O1 |  | RT-K103N |  | 28.5
CCC(C)C#COc1c(C(C)C)c(=O)[nH]c2ccc(F)cc12 | MT-4 | RT-103N V108I | RT-K103N V108I | 66.7
CCOCn1c(Cc2ccccc2)c(C#N)c(=O)[nH]c1=O |  | RT-Y181C |  | >10
O=C1Nc2ccc(Cl)cc2C(C#Cc2ccccn2)(C(F)(F)F)O1 |  | RT-K103N |  | 301
O=C1Nc2ccc(Cl)cc2[C@@](/C=C/C2CC2)(C(F)(F)F)N1 |  | RT-K103N P225H |  | 75
O=C1Nc2ccc(Cl)cc2C(OCC2CC2)(C(F)(F)F)O1 |  | RT-K103N |  | 35.6
CCCc1c(OC2CCCC2)c2cc(OC(F)(F)F)ccc2[nH]c1=O | MT-4 | RT-Y181C | Nevirapine-resistant (RT Y181C) | 7.67

A second listing of 2 rows from above:

SMILES	cells	mutations	strain or isolate	value
N#Cc1cc(Cl)cc(Oc2c(Br)ccc(CC(=O)Nc3ccc(S(N)(=O)=O)cc3Cl)c2F)c1	MT-4	L100I V106I E138K Y188L		>308
CCC(C)c1c(OC2CCCC2)c2cc(Cl)ccc2[nH]c1=O	MT-4	RT-Y181C	Nevirapine-resistant (RT Y181C)	35.3

An empty or dashed field is not shown. Fold resistance has wild type as its base.